Results of unrelated studies side by side (data: NIAID ChemDB).

All rows: target-level tests; organism: HIV-1; target: Reverse transcriptase; endpoint: IC50

Two numbers with a dash give a range or band.

CCN1c2ncc(CCOc3ccc(-c4cc(C(=O)O)c(C)o4)cc3)cc2C(=O)N(C)c2cccnc21 ; strain or isolate: IIIB ; read by: nucleotide incorporation / radiometric ; value: <0.05 µM
Oc1cc2c(cc1O)CN(c1nn3c(C4CC4)nnc3c3ccccc13)CC2 ; strain or isolate: 98US_MSC5016 ; read by: RT activity / fluorescence ; value: 1.79 µM
CC(C)(C)c1ccc(-n2nnnc2SCC(=O)Nc2ccc(OCC(=O)NC(CO)C(=O)O)cc2Cl)c(Cl)c1 ; strain or isolate: WT ; read by: PicoGreen / fluorescence ; value: <1 µM
Nc1ccc2c(c1)CN(c1nn3c(C(F)F)nnc3c3ccccc13)CC2 ; strain or isolate: IIIB ; read by: RT activity / fluorescence ; value: 0.61 µM
CC(C)(O)C#Cc1ccc(NC(=O)CSc2nnnn2-c2c(F)ccc(C(F)(F)F)c2Cl)c(Cl)c1 ; mutations: RT-K103 Y181C ; read by: PicoGreen / fluorescence ; value: <1 µM
CCc1ccc(-n2c(Br)nnc2SCC(=O)Nc2ccc(C(=O)NCC3CCNCC3)cc2Cl)c2ccccc12 ; mutations: RT-Y188L ; read by: nucleotide incorporation / radiometric ; value: >0.1 µM
CCN1c2ncc(CCOc3ccc(S(=O)(=O)NCC(=O)O)c4ccccc34)cc2C(=O)N(C)c2cccnc21 ; mutations: RT-Y188L ; read by: nucleotide incorporation / radiometric ; value: 0.1–1 µM
CC(=O)Nc1ccc2c(c1)CN(c1nn3c(C)nnc3c3ccccc13)CC2 ; strain or isolate: KER2008 ; read by: RT activity / fluorescence ; value: 7.36 µM
CCN1c2ncc(CCOc3ccc(NC(=O)c4ccc(C(=O)O)cc4)cc3C)cc2C(=O)N(C)c2cccnc21 ; strain or isolate: IIIB ; mutations: RT-K103N Y181C ; read by: nucleotide incorporation / radiometric ; value: <0.05 µM
O=C(O)CCNC(=O)c1ccc(NC(=O)CSc2nnc(Br)n2-c2ccc(C3CC3)c3ccccc23)c(Cl)c1 ; mutations: RT-Y181C ; read by: nucleotide incorporation / radiometric ; value: <0.05 µM
CCc1cc(NCc2nc3c(C)ccc(C)c3o2)c(=O)[nH]c1C ; mutations: RT-Y181F ; read by: nucleotide incorporation ; value: 0.0235 µM
CCN1c2ncc(CCOc3ccc(C(=O)O)c4c3CCCC4)cc2C(=O)N(C)c2ccc(Cl)nc21 ; mutations: RT-K103N Y181C ; read by: nucleotide incorporation / radiometric ; value: 0.1–1 µM
CC(C)(C)c1ccc(-n2nnnc2SCC(=O)Nc2ccc(OCC(=O)Nc3ccccc3O)cc2Cl)c(Cl)c1 ; mutations: RT-K103 Y181C ; read by: PicoGreen / fluorescence ; value: <1 µM
COc1nnc2c3ccccc3c(N3CCc4ccc(N)cc4C3)nn12 ; strain or isolate: KER2008 ; read by: RT activity / fluorescence ; value: 4.44 µM
Cc1cc(S(N)(=O)=O)ccc1NC(=O)CSc1nnc(CF)n1-c1c(C)cc(C)c2ccccc12 ; mutations: RT-Y181C ; read by: nucleotide incorporation / radiometric ; value: >0.1 µM
CC(C)(C#Cc1ccc(NC(=O)CSc2nnnn2-c2cc(C(F)(F)F)cc(C3CC3)c2Cl)c(Cl)c1)C(=O)O ; strain or isolate: WT ; read by: PicoGreen / fluorescence ; value: <1 µM
CCN1c2ncc(CCOc3ccc(C(=O)O)c4c3CCC4)cc2C(=O)N(C)c2cccnc21 ; mutations: RT-Y188L ; read by: nucleotide incorporation / radiometric ; value: >1 µM
CC(C)(C)c1ccc(-n2nnnc2SCC(=O)Nc2ccc(OCC(=O)NCCC(=O)O)cc2Cl)c(Cl)c1 ; mutations: RT-K103 Y181C ; read by: PicoGreen / fluorescence ; value: <1 µM
CCc1ccc(-n2c(Br)nnc2SCC(=O)Nc2ccc(C(=O)NCC(=O)O)cc2Cl)c2ccccc12 ; mutations: RT-Y188L ; read by: nucleotide incorporation / radiometric ; value: >0.1 µM
CC(C)(C#Cc1ccc(NC(=O)CSc2nnnn2-c2ccc(C3CC3)cc2Cl)c(Cl)c1)OCCOc1ccncc1 ; strain or isolate: WT ; read by: PicoGreen / fluorescence ; value: <1 µM
Cc1cc(C)c2ccccc2c1-n1c(SCC(=O)Nc2ccc(S(N)(=O)=O)cc2Cl)nnc1C(F)F ; read by: nucleotide incorporation / radiometric ; value: <0.05 µM
CCN1c2ncc(CCOc3ccc(CC(=O)O)c4ccccc34)cc2C(=O)N(C)c2ccc(C)nc21 ; mutations: RT-Y188L ; read by: nucleotide incorporation / radiometric ; value: >1 µM
CCN1c2ncc(CCOc3ccc(NC(=O)c4ccc(C(=O)O)cn4)cc3C)cc2C(=O)N(C)c2cccnc21 ; strain or isolate: IIIB ; read by: nucleotide incorporation / radiometric ; value: <0.05 µM
CCc1ccc(-n2c(Br)nnc2SCC(=O)Nc2ccc(C(=O)N[C@H](C(=O)OC)C(C)C)cc2Cl)c2ccccc12 ; mutations: RT-Y181C ; read by: nucleotide incorporation / radiometric ; value: <0.05 µM
CN(C)c1ccc(CNC(=O)C(C)(C)C#Cc2ccc(NC(=O)CSc3nnnn3-c3ccc(C4CC4)cc3Cl)c(Cl)c2)cc1 ; mutations: RT-K103 Y181C ; read by: PicoGreen / fluorescence ; value: <1 µM
CCN1c2ncc(CCOc3ccc(-c4cc(C(=O)O)ccc4F)cc3C)cc2C(=O)N(C)c2cccnc21 ; strain or isolate: IIIB ; read by: nucleotide incorporation / radiometric ; value: <0.05 µM
NS(=O)(=O)c1ccc(NC(=O)CSc2nnc(Br)n2-c2ccc3c4c(cccc24)CC3)c(Cl)c1 ; mutations: RT-Y188L ; read by: nucleotide incorporation / radiometric ; value: 0.05–0.1 µM
CC(C)(C#Cc1ccc(NC(=O)CSc2nnnn2-c2ccc(C(C)(C)C)cc2Cl)c(Cl)c1)OCC(=O)NCCO ; strain or isolate: WT ; read by: PicoGreen / fluorescence ; value: <1 µM
CCOC(=O)CCNC(=O)c1ccc(NC(=O)CSc2nnc(Br)n2-c2ccc(C3CC3)c3ccccc23)c(Cl)c1 ; read by: nucleotide incorporation / radiometric ; value: <0.05 µM
O=[N+]([O-])c1ccc2c(c1)CN(c1nn3c(C4CC4)nnc3c3ccccc13)CC2 ; strain or isolate: 98US_MSC5016 ; read by: RT activity / fluorescence ; value: 7.02 µM
CC(C)(C)c1ccc(-n2nnnc2SCC(=O)Nc2ccc(OCC(=O)NCCO)cc2Cl)c(Cl)c1 ; strain or isolate: WT ; read by: PicoGreen / fluorescence ; value: <1 µM
CCc1ccc(-n2c(Br)nnc2SCC(=O)Nc2ccc(S(=O)(=O)O)cc2Br)c2ccccc12 ; mutations: RT-Y181C ; read by: nucleotide incorporation / radiometric ; value: <0.05 µM
Cc1ccc(-n2nnnc2SCC(=O)Nc2ccc(-c3cnc[nH]3)cc2Cl)c(Cl)c1 ; mutations: RT-K103 Y181C ; read by: PicoGreen / fluorescence ; value: <1 µM
CCc1ccc(-n2c(Br)nnc2SCC(=O)Nc2ccc(C(=O)NCCCCO)cc2Cl)c2ccccc12 ; mutations: RT-Y188L ; read by: nucleotide incorporation / radiometric ; value: <0.05 µM
O=C(COc1ccc(NC(=O)CSc2nnnn2-c2ccc(C3CC3)cc2Cl)c(Cl)c1)NCCc1ccc[n+]([O-])c1 ; strain or isolate: WT ; read by: PicoGreen / fluorescence ; value: <1 µM
Cc1cc(S(N)(=O)=O)ccc1NC(=O)CSc1nnc(Br)n1-c1c(Cl)cc(C2CCC2)c2ccccc12 ; mutations: RT-Y181C ; read by: nucleotide incorporation / radiometric ; value: <0.05 µM
CC(C)(C#Cc1ccc(NC(=O)CSc2nnnn2-c2ccc(C3CC3)cc2Cl)c(Cl)c1F)OCCN1CCNCC1 ; strain or isolate: WT ; read by: PicoGreen / fluorescence ; value: <1 µM
CCc1ccc(-n2c(Br)nnc2SCC(=O)Nc2ccc(C(=O)NCCC#N)cc2Cl)c2ccccc12 ; read by: nucleotide incorporation / radiometric ; value: <0.05 µM
CN(C)CC(=O)NC(C)(C)C#Cc1ccc(NC(=O)CSc2nnnn2-c2ccc(C3CC3)cc2Cl)c(Cl)c1 ; mutations: RT-K103 Y181C ; read by: PicoGreen / fluorescence ; value: <1 µM
CCc1ccc(-n2c(Br)nnc2SCC(=O)Nc2ccc(C(=O)NCCO)cc2Cl)c2ccccc12 ; mutations: RT-Y188L ; read by: nucleotide incorporation / radiometric ; value: 0.05–0.1 µM
Cc1nnc2c3ccccc3c(N3Cc4ccccc4C(C)(C)C3)nn12 ; strain or isolate: IIIB ; read by: RT activity / fluorescence ; value: 23.6 µM
CC(C)(C)c1ccc(-n2nnnc2SCC(=O)Nc2ccc(C#CCN3CCOCC3)cc2Cl)c(Cl)c1 ; mutations: RT-K103 Y181C ; read by: PicoGreen / fluorescence ; value: <1 µM
Cc1ccc2c(C)cc(C)c(-n3c(SCC(=O)Nc4ccc(S(N)(=O)=O)cc4Cl)nnc3C(F)F)c2n1 ; read by: nucleotide incorporation / radiometric ; value: <0.05 µM
CN(C)CCCC(=O)NC(C)(C)C#Cc1ccc(NC(=O)CSc2nnnn2-c2ccc(C3CC3)cc2Cl)c(Cl)c1F ; mutations: RT-K103 Y181C ; read by: PicoGreen / fluorescence ; value: <1 µM
CCc1ccc(-n2c(CF)nnc2SCC(=O)Nc2ccc(S(N)(=O)=O)cc2Cl)c2c1CCCC2 ; mutations: RT-Y181C ; read by: nucleotide incorporation / radiometric ; value: <0.05 µM

Repeating the first 3 entries:

{"structure": "CCN1c2ncc(CCOc3ccc(-c4cc(C(=O)O)c(C)o4)cc3)cc2C(=O)N(C)c2cccnc21", "strain or isolate": "IIIB", "read by": "nucleotide incorporation / radiometric", "value": "<0.05 µM"}
{"structure": "Oc1cc2c(cc1O)CN(c1nn3c(C4CC4)nnc3c3ccccc13)CC2", "strain or isolate": "98US_MSC5016", "read by": "RT activity / fluorescence", "value": "1.79 µM"}
{"structure": "CC(C)(C)c1ccc(-n2nnnc2SCC(=O)Nc2ccc(OCC(=O)NC(CO)C(=O)O)cc2Cl)c(Cl)c1", "strain or isolate": "WT", "read by": "PicoGreen / fluorescence", "value": "<1 µM"}

Lines come from different laboratories, so protocols vary. ICn is the concentration giving n% inhibition.